Data as given in PubChem BioAssay AID1224833 (University of Georgia, 2016).
Here is a random part of about 12,000 deposited reagents. Over the whole deposit, about 5,600 (46%) are marked active. 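Active calls cover z-scores past 1 in both directions, so they include lowered as well as raised rotavirus replication.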

- Screen: 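Human genes whose knock-down alters rotavirus replication in monkey cells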 (primary screen)
- Cells: monkey MA104 kidney cells
- Knock-down reagent: siRNA pool against human genes, 50 nM
- Duration: 48 h knock-down before infection; read 24 h after infection
- Conditions: infection with rotavirus strain RV3 two days after transfection; infectious dose for this stage not given
- Read-out: 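Rotavirus antigen per well by fluorescent immunoassay, normalised to non-targeting control wells on each plate and given as a standard z-score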
- Direction: z-score vs non-targeting control: higher = more rotavirus replication than with non-targeting control
- Rule for the call: In these data the active calls have z-score vs non-targeting control at about -1 or lower, or at about 1 or higher
- Meaning of the calls: active = z-score beyond 1 either way; inactive = z-score within 1 of zero

Target gene | z-score vs non-targeting control | outcome
RPS4X | 1.9 | active
EFR3A | -1.08 | active
PLEKHA1 | -2.55 | active
CRB2 | 0.802 | inactive
ARL5B | 0.232 | inactive
TEX29 | 2.54 | active
TXLNB | 1.53 | active
ZNF182 | 1.85 | active
COQ10A | 0.499 | inactive
POU2F2 | -1.65 | active
RARRES1 | 0.847 | inactive
FLNA | 3.31 | active
SLC44A1 | -1.45 | active
DENND3 | -1.19 | active
NINL | -1.12 | active
SLC35E2A | -1.21 | active
IWS1 | 0.979 | inactive
CBLN4 | 1.31 | active
KRTAP4-7 | -0.504 | inactive
LYPD2 | -0.201 | inactive
MYEOV | 0.19 | inactive
CORO7 | 1.24 | active
LIPA | -3.07 | active
TNFSF15 | -0.421 | inactive
IKZF2 | 1.78 | active
NDN | -0.958 | inactive
SFT2D1 | 0.758 | inactive
DCTPP1 | 1.49 | active
KLF14 | -1.71 | active
CALCB | -0.0193 | inactive
CTHRC1 | -0.0436 | inactive
IL3RA | -2.07 | active
SERPINA1 | 0.962 | inactive
MAPK1IP1L | 0.391 | inactive
MBD3L2 | -0.483 | inactive
TMEFF2 | -2.02 | active
EHD3 | -0.812 | inactive
KAT2A | -0.688 | inactive
RALGDS | -0.284 | inactive
PABIR3 | 2.68 | active
PCDHGC5 | 0.525 | inactive
CCDC144NL | 1.14 | active
PRDX5 | 1.3 | active
ANKRD30A | -1.48 | active
CPNE6 | 0.439 | inactive
BPIFB2 | -0.954 | inactive
PGLYRP1 | -0.585 | inactive
MMP8 | 1.07 | active
RPL24 | -1.27 | active
TBC1D21 | 2.24 | active
NTF4 | -0.669 | inactive
MRPL52 | -1.74 | active
SAMSN1 | -0.538 | inactive
GNGT2 | 0.864 | inactive
GPR26 | 1.02 | active
NRM | -0.522 | inactive
SERPINB5 | -1.29 | active
ADTRP | -0.157 | inactive
HLA-F | -0.266 | inactive
ATP13A1 | -1.02 | active
THRA | 2.43 | active
EMC7 | -0.488 | inactive
GNAQ | -0.0944 | inactive
VAMP3 | 0.88 | inactive
MOCS2 | -1.2 | active
SLC61A1 | 1.61 | active

Continued, starting with the last 19 of the part before.
Target gene | z-score vs non-targeting control | outcome
MMP8 | 1.07 | active
RPL24 | -1.27 | active
TBC1D21 | 2.24 | active
NTF4 | -0.669 | inactive
MRPL52 | -1.74 | active
SAMSN1 | -0.538 | inactive
GNGT2 | 0.864 | inactive
GPR26 | 1.02 | active
NRM | -0.522 | inactive
SERPINB5 | -1.29 | active
ADTRP | -0.157 | inactive
HLA-F | -0.266 | inactive
ATP13A1 | -1.02 | active
THRA | 2.43 | active
EMC7 | -0.488 | inactive
GNAQ | -0.0944 | inactive
VAMP3 | 0.88 | inactive
MOCS2 | -1.2 | active
SLC61A1 | 1.61 | active
PIEZO1 | -3.15 | active
MAGT1 | -0.575 | inactive
BANP | -1.01 | active
MYORG | -0.487 | inactive
CARF | -1.24 | active
MRPL37 | -1.41 | active
CDH15 | -0.28 | inactive
EML3 | 2.36 | active
ZNF354C | -1.47 | active
CLPS | -0.0936 | inactive
MAPK8IP2 | -0.121 | inactive
SUPT6H | 1.45 | active
ASIP | -0.995 | inactive
CD3G | 1.79 | active
MYO7A | 0.43 | inactive
HSPB6 | -0.668 | inactive
SLC25A5 | 0.623 | inactive
ATAD3B | -0.0267 | inactive
CGB3 | -0.253 | inactive
ARSK | 1.21 | active
TPGS1 | -0.227 | inactive
NCLN | -0.99 | inactive
ZNF20 | 0.514 | inactive
TPT1 | -1.89 | active
WDR36 | -0.837 | inactive
PILRB | -0.196 | inactive
SLC39A13 | -0.35 | inactive
THOC1 | 0.449 | inactive
SLN | -0.851 | inactive
ZNF140 | -0.488 | inactive
GPR137B | -1.82 | active
TMSB4X | -1.2 | active
NUBP2 | 0.819 | inactive
SRSF4 | -0.284 | inactive
TMEM100 | 1.39 | active
UXT | -0.886 | inactive
CFAP410 | -2.31 | active
WNT3 | -0.946 | inactive
DMRT3 | -2.04 | active
ARRB2 | 2.71 | active
KDM4C | 1.84 | active
EBAG9 | 1.07 | active
OR4C11 | -0.203 | inactive
SPATA2L | -0.764 | inactive
STX10 | -0.656 | inactive
LRP2 | -1.8 | active
PRODH | -1.04 | active
MINDY3 | -0.323 | inactive
SRP19 | -0.522 | inactive
TICAM2 | 0.352 | inactive
GUCY1B1 | -1.48 | active
FAT1 | 0.5 | inactive
TSHZ3 | 3.09 | active
RGS17 | -1.01 | active
COMMD10 | -1.33 | active
PDRG1 | 0.53 | inactive
PHLDA1 | -0.871 | inactive
GAL3ST2 | -1.12 | active
DNER | -0.35 | inactive
PCDH11Y | 0.627 | inactive
ATP6AP2 | -0.344 | inactive
PBOV1 | -0.862 | inactive
MRPL36 | -1.84 | active
CTNND2 | -0.707 | inactive
OR6B1 | -0.552 | inactive
PDE12 | 0.809 | inactive
GRSF1 | 0.339 | inactive
IRF7 | -1.71 | active
NBEA | -0.922 | inactive
DNAH6 | -0.725 | inactive
ASGR2 | -1.84 | active
RABGGTB | -0.846 | inactive
CHPF2 | -1.27 | active
FGB | -1.44 | active
